Tested on: P. falciparum late stage (stages IV-V) gametocytes
Assay: P. falciparum late stage gametocyte ATP depletion assay (Pf GC-ATP)
[1] = unified cytotox / Pf GC-ATP IC50, red: <10-fold selectivity, green: >10-fold
[2] = unified cytotox / Pf GC-ATP IC50, <10-fold selectivity red, >10-fold green
[3] = unified cytotox / IC50, <10-fold red, >10-fold green

Structure (SMILES) | Assay tox ratio Pf GC-ATP [1] | further results
CN1CCN(CCCN(Cc2ccc(-c3cccc(CNC4CCCC4)c3)cc2)C(=O)Nc2ccccc2)CC1.O=C(O)C(F)(F)F [TCMDC-140605] | 80.72 | 
CC(C)c1ccc(NC(=S)NN=Cc2ccccn2)cc1 [TCMDC-125520] | 1306.12 | 
CCCCOc1ccc(C(=O)C(CCC(CNC(C)(C)C)C(=O)c2ccc(OCCCC)cc2)CNC(C)(C)C)cc1.Cl (centres unmarked) [TCMDC-124120] |  | Assay tox ratio Pf GC-ATP [2]: 10.33
CN1CCN(CC2(Nc3nccc(NCCc4cn(C)c5ccccc45)n3)CCCCC2)CC1 [TCMDC-135122] | 9.96 | 
CC(C)CNCc1ccc(-c2cccc(CN(C(=O)NC3CCCCC3)C3CCN(Cc4ccccc4)CC3)c2)cc1.O=C(O)C(F)(F)F [TCMDC-140628] | 1.09 | 
COc1ccc2nc3cc(Cl)ccc3c(NCCCCN3CCNCC3)c2c1.Cl [TCMDC-137578] | 7.58 | 
CC(=NNC(=S)NCCc1ccccn1)c1ccccn1 [TCMDC-137895] | 16.72 | 
CN(C)CCN(Cc1ccccc1-c1ccc(CNCCc2ccccc2)cc1)C(=O)c1ccccc1.O=C(O)C(F)(F)F [TCMDC-140532] | 9.67 | 
COc1ccccc1-c1cccc(-c2cccc(NC(=O)c3ccc([N+](=O)[O-])o3)c2)n1 [TCMDC-124800] |  | Assay tox ratio Pf GC-ATP [2]: 6.90
CC(C)(C)N1CCC(N(Cc2ccc(-c3ccc(C(F)(F)F)cc3)cc2)C(=O)Cn2c(CCc3cccc(F)c3F)cc(=O)c3cccnc32)CC1.O=C(O)C(O)C(O)C(=O)O [TCMDC-136011] | 1.30 | 
CCc1c(CCNCCc2cccc(CCNCCc3ccc(OC)c(OC)c3CC)c2)ccc(OC)c1OC.Cl [TCMDC-132056] | 7.47 | 
CC(CCCC(=O)Nc1ccc(CC(C)NCCc2cccc(Cl)c2)cc1)NCCc1cccc(Cl)c1 (centres unmarked) [TCMDC-139798] | 5.52 | 
CCn1ncc2c(NC3CCOCC3)c(CNC(=O)c3ccnn3C)c(C)nc21 [TCMDC-136560] | 15.29 | 
O=C(COc1ccccc1)N(Cc1ccc(-c2ccc(CNC3Cc4ccccc4C3)cc2)cc1)C1CCNCC1.O=C(O)C(F)(F)F [TCMDC-141450] | 7.91 | 
Cc1cc(-c2cccc(CNC3CCCC3)c2)ccc1S(=O)(=O)NCCN1CCCC1.O=C(O)C(F)(F)F [TCMDC-132279] | 6.06 | 
O=C(NCCc1ccccc1)N(Cc1cccc(-c2ccc(CNC3CCCC3)cc2)c1)C1CCN(Cc2ccccc2)CC1.O=C(O)C(F)(F)F [TCMDC-140618] | 5.66 | 
CC(C)CNCc1cccc(-c2cccc(CN(CCCN3CCN(C)CC3)C(=O)/C=C/c3ccccc3)c2)c1.O=C(O)C(F)(F)F [TCMDC-140541] | 13.42 | 
CN1CCN(CCCN(Cc2cccc(-c3cccc(CNC4CCCC4)c3)c2)C(=O)/C=C/c2ccccc2)CC1.O=C(O)C(F)(F)F [TCMDC-140543] | 8.91 | 
O=C(Nc1ccc(F)c(C(F)(F)F)c1)NC1CCN(CCCCCNC(=O)C2CC2c2ccc(Cl)c(Cl)c2)CC1 (centres unmarked) [TCMDC-136259] | 1.47 | 
CC(Cc1ccc(COc2ccc(CC(CO)NCCc3cccc(Cl)c3)cc2)cc1)NCCc1cccc(Cl)c1.Cl (centres unmarked) [TCMDC-139844] | 2.53 | 

Structure (SMILES) | Assay tox ratio Pf GC-ATP [1] | further results
Cl.O=C(NCCCCN1CCC(c2ccc3c(c2OCCO)CCCC3)CC1)c1ccc2oc(-c3ccc(C(F)(F)F)cc3)cc2c1 [TCMDC-138771] | 10.46 | 
Fc1ccc2[nH]c(-c3cccc(-c4ccc(CNCCN5CCNCC5)cc4)c3)nc2c1.O=C(O)C(F)(F)F [TCMDC-132863] | 16.62 | 
CCNCc1cccc(-c2ccc3ccnc(N)c3c2)c1 [TCMDC-136869] | 7.53 | 
O=C(/C=C/c1ccc(Cl)c(Cl)c1)NCCCCCN1CCCC(CNS(=O)(=O)c2cccc(C(F)(F)F)c2)C1 (centres unmarked) [TCMDC-139597] | 0.44 | 
COc1ccc(CCNc2nc(NCc3ccccc3)c3cc(OC)c(OC)cc3n2)cc1OC [TCMDC-132017] | 0.82 | 
CCOc1ccc2ccccc2c1CNCCCCCCNCc1c(OCC)ccc2ccccc12.CS(=O)(=O)O [TCMDC-137791] | 2.50 | 
CCCCCCCN1CC[C@@H](CCCc2ccnc3ccc(OCCC4CCNCC4)cc23)[C@@H](CC)C1.Cl [TCMDC-139819] | 10.84 | 
CCCCCCCN1CC[C@@H](CCCc2ccnc3ccc(OCC4CCCNC4)cc23)[C@@H](CC)C1.Cl (some centres unmarked) [TCMDC-139816] | 13.93 | 
CC(C)CNCc1cccc(-c2cccc(CNCCCN3CCN(C)CC3)c2)c1.O=C(O)C(F)(F)F [TCMDC-140483] | 15.99 | 
CCN(Cc1ccc(-c2ccc(C(F)(F)F)cc2)cc1)C(=O)Cn1c(SCc2cccc(F)c2F)cc(=O)c2cc(CN3CCCCC3)ccc21.Cl [TCMDC-141592] | 1.80 | 
CCN(CC)/C(=N/C(=N)Nc1ccc(Cl)c(Cl)c1)NCCCCCCN/C(=N\C(=N)Nc1ccc(Cl)c(Cl)c1)N(CC)CC [TCMDC-131808] | 7.28 | 
CCc1c(CCNCCCC(C)CCNCCc2ccc(OC)c(OC)c2CC)ccc(OC)c1OC.Cl (centres unmarked) [TCMDC-132065] | 13.24 | 
C=C(C)Cn1cc(C2CCN(CCN3CCC(CNC(=O)c4ccc(-c5ccc(C#N)cc5)cc4)CC3)CC2)c2ccccc21 [TCMDC-138854] | 1.26 | 
COc1cc(Br)c(S(=O)(=O)n2cc(CN3CCC(N)CC3)c3cc(Cl)ccc32)cc1OC.O=C(O)C(F)(F)F [TCMDC-136384] | 2.77 | 
COCCCNC(=S)NN=C(C)c1ccccn1 [TCMDC-137907] | 106.25 | 
CCN(CC)/C(=N\C(=N)NCCCCCCNC(=N)/N=C(\Nc1ccc(Cl)cc1)N(CC)CC)Nc1ccc(Cl)cc1 [TCMDC-131807] | 68.49 | 
COc1ccc(C[C@H]2NC[C@H](O)[C@H]2OC(C)=O)cc1 [TCMDC-125504] |  | Assay tox ratio Pf GC-ATP [3]: 7.16
CCOc1ccc(-c2nonc2NC(=O)c2cccc(Cl)c2)cc1OCC [TCMDC-125200] |  | Assay tox ratio Pf GC-ATP [3]: 23.21
CN1CCC(C(=O)N(Cc2ccc(-c3ccc(CNCCc4ccccc4)cn3)cc2)C2CCN(Cc3ccccc3)CC2)CC1.O=C(O)C(F)(F)F [TCMDC-141552] | 10.34 | 
C=CC(C)C1OC(=O)c2cc(OC)cc(OC)c21 (centres unmarked) [TCMDC-138676] |  | Assay tox ratio Pf GC-ATP [3]: 2.52

Structure (SMILES) | Assay tox ratio Pf GC-ATP [1] | further results
Fc1ccc(N(c2nc(-c3cc(F)cc(C(F)(F)F)c3)cs2)C2CCNCC2)cc1.O=C(O)C(F)(F)F [TCMDC-136656] | 2.02 | 
CC(C)(C)OC(=O)NCc1ccc(Nc2nnc(-c3ccc(OCC(=O)NCc4ccc(C(C)(C)C)cc4)c([N+](=O)[O-])c3)o2)cc1 [TCMDC-134991] | 4.50 | 
CC(C)CNCc1ccc(-c2ccc(CN(CCCN3CCN(C)CC3)C(=O)/C=C/c3ccccc3)cc2)cc1.O=C(O)C(F)(F)F [TCMDC-140546] | 6.97 | 
Nc1ncc(-c2ccc3nccc(-c4ccncc4)c3c2)cc1S(=O)(=O)N1CCCCC1 [TCMDC-134265] | 12.06 | 
CCn1c(-c2nonc2N)nc2c(-c3cccc(NC(=O)Nc4ccccc4OC)c3)ncc(OCCCN)c21.O=C(O)C(F)(F)F [TCMDC-136190] | 13.56 | 
COc1ccc2nc3cc(Cl)ccc3c(NCCCCNc3c4ccc(Cl)cc4nc4ccc(OC)cc34)c2c1 [TCMDC-138218] | 72.35 | 
CCc1ccc(CN2CCC(CNC(=O)c3cc(-c4cccc(F)c4)cs3)C2)cc1.O=C(O)C(F)(F)F (centres unmarked) [TCMDC-134432] | 5.75 | 
Nc1cc(/C=C/c2ccc([N+](=O)[O-])s2)nc2ccccc12 [TCMDC-142296] | 12.77 | 
CCN(CC)/C(=N/C(=N)NCc1ccc(Cl)cc1)NCCCCCCN/C(=N\C(=N)NCc1ccc(Cl)cc1)N(CC)CC [TCMDC-131817] | 31.65 | 
CN(C)CCNC(=O)c1ccc(-c2cnc3ccc(NCc4ccc(Cl)c(Cl)c4)nn23)cc1 [TCMDC-136678] | 49.98 | 
CC(Cc1ccc(CNC(=O)NCc2ccc(CC(C)NCCc3cccc(Cl)c3)cc2)cc1)NCCc1cccc(Cl)c1 (centres unmarked) [TCMDC-139648] |  | Assay tox ratio Pf GC-ATP (unified cytotox over Pf GC-ATP IC50, red: <10-fold selectivity, green: >10-fold): 6.85
Cc1cccc2nc(-c3ccc(-c4ccc(CN5CCC(CCN6CCCCC6)CC5)cc4)cc3)[nH]c12.O=C(O)C(F)(F)F [TCMDC-133929] | 13.88 | 
CCN(CC)CCN(Cc1ccc(-c2ccc(C(F)(F)F)cc2)cc1)C(=O)c1ccc(-c2ccc(NC(=O)OC)cc2C)cc1 [TCMDC-141558] | 1.46 | 
CC(C)CCNC(=O)c1cnc2c(O)cccc2c1Nc1cccc(NC(=O)c2ccc(F)cc2)c1.O=C(O)C(F)(F)F [TCMDC-139606] | 4.15 | 
Cl.N=C(N)NN=Cc1c2ccccc2c(Cl)c2cc(Cl)ccc12 [TCMDC-137903] | 3.20 | 
CC(C)CNCc1cccc(-c2ccc(CN(CCCN3CCN(C)CC3)C(=O)/C=C/c3ccccc3)cc2)c1.O=C(O)C(F)(F)F [TCMDC-140545] | 10.56 | 
Fc1ccc2[nH]c(-c3cccc(-c4cccc(CNCCN5CCNCC5)c4)c3)nc2c1.O=C(O)C(F)(F)F [TCMDC-132860] | 26.65 | 
CN(CCCNCc1cccc2ccccc12)CCCNCc1cccc2ccccc12.Cl [TCMDC-137905] | 24.87 | 
NC1CCN(Cc2ccc(-c3ccc(-c4nc5cc(F)ccc5[nH]4)cc3)cc2)C1.O=C(O)C(F)(F)F (centres unmarked) [TCMDC-133872] | 8.77 | 

Source: paper PMC6753678, “Fueling Open Innovation for Malaria Transmission-Blocking Drugs: Hundreds of Molecules Targeting Early Parasite Mosquito Stages” (Frontiers in Microbiology, 2019)
